{
  "source": "patent US20160009772A1",
  "about": "(priority 2012, published 2016)",
  "key": {"[1]": {"test": "peptide made by a vendor (Fmoc solid-phase peptide synthesis; Rink Amide MBHA resin; Fmoc-Linker-Rink amide resin; HBTU or DIC, HOBT added)", "conditions": "whole synthesis, analytical HPLC, scale of the general procedure 0.4 mm"}, "[2]": {"test": "peptide made by a vendor (Fmoc solid-phase peptide synthesis; Fmoc-Linker-Rink amide resin; HBTU or DIC, HOBT added)", "conditions": "whole synthesis, scale 0.15 mmole"}},
  "data": [
    {"substance": "Ac-KDLMVQWFKDGGPSSGAPPPS-NH2", "values": [
      {"measurement": "final HPLC purity", "setting": "[1]", "result": ">95", "unit": "%"},
      {"measurement": "isolated yield", "setting": "[2]", "result": 20, "unit": "%"}
    ]}
  ]
}
